Source: US11364264B2, “Ex vivo antigen-presenting cells or activated CD-positive T cells for treatment of cancer” (priority 2016, dated 2022)
Where two headings read alike, the source gives them in different places.

Key:
[1] = tested on: Luc-ID8 ovarian cancer cells; test: Syngeneic Luc-ID8 ovarian cancer model: tumor growth by bioluminescence imaging and survival; format: in vivo; details: 4 μg per mouse i.p.; for Median survival: saline 55 days; for Survival of tumor-bearing mice compared to saline: Log-rank, p=0.0253 (VIC-007), p=0.0002 (VIC-008)
[2] = tested on: ovarian cancer and mesothelioma; details: previous study (Yuan J, et al. 2014); cited from earlier work
[3] = tested on: Luc-40L mesothelioma cancer cells; test: Luc-40L mesothelioma model, survival (Example 4); format: in vivo, mouse; details: VIC-008 20 μg and/or AMD3100 1 μg/g body weight once a week for four weeks
[4] = tested on: 40L mouse mesothelioma cell line; test: 40L intraperitoneal malignant mesothelioma model: tumor weight and survival (Example 5); details: in vivo
[5] = tested on: AE17 mouse mesothelioma cell line; test: AE17 intraperitoneal malignant mesothelioma model: tumor weight and survival (Example 5); details: in vivo
[6] = tested on: 40L mouse mesothelioma cell line; test: Immune profiling by flow cytometry of tissues from 40L tumor-bearing mice; format: in vivo
[7] = tested on: AE17 mouse mesothelioma cell line; format: in vivo; details: for Proportion of PD-1-expressing CD8+ T cells compared to saline / Proportion of CD8+ T cells in total live cells compared to saline: AE17; for Proportion of CD8+ T cells in total live cells compared to saline: one week after last treatment
[8] = tested on: 40L mouse mesothelioma cell line; test: Ex vivo restimulation with recombinant mesothelin, intracellular IFN-γ in CD8+ T cells, 40L mice
[9] = tested on: AE17 mouse mesothelioma cell line; test: Ex vivo restimulation with recombinant mesothelin, intracellular IFN-γ in CD8+ T cells, AE17 mice
[10] = 4 treatments at 7-day intervals, p<0.0001
[11] = 4 treatments at 7-day intervals

B1: VIC-007: Original scFv-MtbHsp70 fusion protein: anti-MSLN p4 scFv fused to full length MtbHsp70 with a (G4S)3 linker (protein)
chain: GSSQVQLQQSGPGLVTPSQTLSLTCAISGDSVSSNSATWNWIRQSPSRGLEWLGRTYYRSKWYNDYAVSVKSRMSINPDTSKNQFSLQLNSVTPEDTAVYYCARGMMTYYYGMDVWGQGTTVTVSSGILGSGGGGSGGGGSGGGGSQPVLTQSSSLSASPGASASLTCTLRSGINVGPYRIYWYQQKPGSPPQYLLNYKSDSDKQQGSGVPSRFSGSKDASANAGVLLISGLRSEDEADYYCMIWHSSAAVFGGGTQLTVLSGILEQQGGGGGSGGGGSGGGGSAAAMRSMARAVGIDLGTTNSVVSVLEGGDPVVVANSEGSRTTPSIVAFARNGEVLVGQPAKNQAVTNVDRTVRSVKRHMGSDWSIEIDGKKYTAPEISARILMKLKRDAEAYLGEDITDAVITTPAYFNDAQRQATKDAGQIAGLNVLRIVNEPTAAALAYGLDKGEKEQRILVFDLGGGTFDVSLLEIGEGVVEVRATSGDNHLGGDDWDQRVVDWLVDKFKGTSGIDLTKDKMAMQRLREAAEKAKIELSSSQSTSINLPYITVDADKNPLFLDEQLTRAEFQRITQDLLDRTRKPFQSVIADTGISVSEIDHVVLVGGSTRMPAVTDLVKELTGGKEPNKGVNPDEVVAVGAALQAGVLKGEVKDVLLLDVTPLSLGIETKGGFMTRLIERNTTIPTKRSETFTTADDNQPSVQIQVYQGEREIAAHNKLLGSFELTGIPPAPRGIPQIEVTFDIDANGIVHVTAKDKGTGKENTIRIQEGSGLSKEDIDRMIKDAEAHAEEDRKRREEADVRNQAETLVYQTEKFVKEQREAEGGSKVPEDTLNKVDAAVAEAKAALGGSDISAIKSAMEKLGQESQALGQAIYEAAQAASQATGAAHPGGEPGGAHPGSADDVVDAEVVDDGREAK
modifications: fusion protein
notes: Original scFv-MtbHsp70 fusion protein: anti-MSLN p4 scFv fused to full length MtbHsp70 with a (G4S)3 linker
[1]; [10]
  Intraperitoneal tumor growth (bioluminescence signals) compared to saline: significantly slowed tumor growth
[1]; [11]
  Median survival: 60 days
[1]
  Survival of tumor-bearing mice compared to saline: significantly enhanced the survival
[2]
  Control of tumor growth: significant control of tumor growth
  Survival of tumor-bearing mice: prolongation of the survival

B2: VIC-008: New version of scFv-MtbHsp70 fusion protein (anti-MSLN scFv fused to MtbHsp70), redundant amino acids eliminated, F in place of V at position 381 (protein)
chain: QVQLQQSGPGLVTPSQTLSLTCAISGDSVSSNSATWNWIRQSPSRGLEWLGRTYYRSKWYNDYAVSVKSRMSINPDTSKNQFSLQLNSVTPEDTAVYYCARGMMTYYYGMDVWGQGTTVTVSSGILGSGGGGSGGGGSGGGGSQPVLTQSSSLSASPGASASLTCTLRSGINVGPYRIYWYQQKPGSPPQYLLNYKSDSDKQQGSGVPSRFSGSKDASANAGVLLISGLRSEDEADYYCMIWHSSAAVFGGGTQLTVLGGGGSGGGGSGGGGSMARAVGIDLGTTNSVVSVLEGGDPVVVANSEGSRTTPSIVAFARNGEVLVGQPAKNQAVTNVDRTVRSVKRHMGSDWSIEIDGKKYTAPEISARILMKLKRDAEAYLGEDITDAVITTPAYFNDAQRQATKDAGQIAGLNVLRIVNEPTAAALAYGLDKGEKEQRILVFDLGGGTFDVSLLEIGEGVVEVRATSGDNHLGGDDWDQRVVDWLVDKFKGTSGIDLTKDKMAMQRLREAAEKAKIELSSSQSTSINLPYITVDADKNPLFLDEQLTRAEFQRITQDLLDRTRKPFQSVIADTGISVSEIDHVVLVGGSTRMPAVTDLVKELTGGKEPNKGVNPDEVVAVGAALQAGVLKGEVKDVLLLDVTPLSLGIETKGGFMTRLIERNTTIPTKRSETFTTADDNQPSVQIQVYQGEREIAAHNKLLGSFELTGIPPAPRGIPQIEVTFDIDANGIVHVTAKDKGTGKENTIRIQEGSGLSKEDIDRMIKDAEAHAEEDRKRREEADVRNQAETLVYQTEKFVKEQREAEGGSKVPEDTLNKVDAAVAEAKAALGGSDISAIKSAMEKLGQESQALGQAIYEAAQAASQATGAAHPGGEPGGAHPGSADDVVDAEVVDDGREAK
modifications: fusion protein
[1]; [10]
  Intraperitoneal tumor growth (bioluminescence signals) compared to VIC-007: further significantly delayed tumor growth
  Intraperitoneal tumor growth (bioluminescence signals) compared to saline: significantly slowed tumor growth
[1]; [11]
  Median survival: 65 days
[1]; Log-rank p=0.0301
  Survival of tumor-bearing mice compared to VIC-007: further significantly prolonged the survival
[1]
  Survival of tumor-bearing mice compared to saline: significantly enhanced the survival
[3]
  Survival of tumor-bearing mice compared to saline: significantly enhanced the survival
[4]
  Animal survival compared to saline: significantly prolonged
  Total weight of intraperitoneal tumors / tumor control compared to saline: generally reduced
[5]
  Animal survival compared to saline: significantly prolonged
  Total weight of intraperitoneal tumors / tumor control compared to saline: generally reduced
[6]; […], one week after last treatment
  Proportion of CD8+ T cells in total live cells compared to saline: significantly increased
[6]; mouse, in vivo
  Percentage of PD-1 expressing CD8+ T cells: 43-76%
[7]; AE17 tumors
  Percentage of PD-1 expressing CD8+ T cells: 28-47%
[7]; lymph nodes
  Proportion of PD-1-expressing CD8+ T cells compared to saline: no significant difference
  Proportion of CD8+ T cells in total live cells compared to saline: significantly increased
[7]; spleen and lymph nodes, model not stated
  Percentage of PD-1 expressing CD8+ T cells: 5-10%
[7]; spleens
  Proportion of PD-1-expressing CD8+ T cells compared to saline: no significant difference
  Proportion of CD8+ T cells in total live cells compared to saline: significantly increased
[7]; tumors
  Proportion of PD-1-expressing CD8+ T cells compared to saline: significantly more
  Proportion of CD8+ T cells in total live cells compared to saline: significantly increased
[8]
  Mesothelin-specific IFN-γ expression in CD8+ T cells compared to saline: significantly greater
[9]; lymph node CD8+ T cells
  Mesothelin-specific IFN-γ expression in CD8+ T cells compared to saline: significantly greater
[9]; splenic CD8+ T cells
  Mesothelin-specific IFN-γ expression in CD8+ T cells compared to saline: significantly greater
